Record: PubChem BioAssay AID504761 (Drosophila RNAi Screening Center, 2011)

- Screen: 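Genome-wide fly cell screen for genes dengue virus requires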 (primary screen)
- Cell system: D.Mel-2 cells from Drosophila
- Knock-down reagent: long dsRNA against Drosophila genes
- Challenge: infection with dengue virus type 2; dose and infection time not stated
- Detection: 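Per well on two replicate plates, imaging gave the percent of cells positive for viral envelope protein, ranked by infection, and a nuclear count of cells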
- Scale: infection score: higher = more virus-infected cells
- Rule for the call: 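Low infection ranks in the two replicates (chance level up to 0.065) followed by a retest with a 1.5-fold or larger significant decrease, p below 0.05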
- Calls: active = confirmed: knock-down lowers infection; inactive = not picked or not confirmed
The screen tested about 22,000 reagents; below is a random part of those with a known target gene and a result. Over the whole deposit, 116 (0.52%) were called active. 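Calls depend on retest data that are not deposited; infection was ranked per plate without normalising between plates; the unit of the infection score is not given.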 A number with no mark means an inactive call. A plus sign joins genes that one reagent is predicted to hit. Not all columns of the deposit are shown. The record does not give: the amount of reagent, the time to read-out.

Target gene	DRSC id	infection score, replicate 1
Decay (Death executioner caspase related to Apopain/Yama)	DRSC16930	3.37
CG12301	DRSC09875	11.1
h-cup (heineken-cup)	DRSC15973	16.1
h-cup (heineken-cup)	DRSC24713	10.3
Act42A (Actin 42A)	DRSC04835	6.82
Act42A (Actin 42A)	DRSC25061	8.52
Enoph (Enolase-phosphatase)	DRSC12201	3.47
CG2321	DRSC15439	6.37
Ten-m (Tenascin major)	DRSC11664	3.68
Ten-m (Tenascin major)	DRSC11882	4.46
SRPK (SR Protein Kinase)	DRSC07090	6.79
SRPK (SR Protein Kinase)	DRSC28162	7.73
CG34406 (retired record)	DRSC00523	18.3
CG34406 (retired record)	DRSC00606	1.67
CG34406 (retired record)	DRSC25843	13.2
mRpL37 (mitochondrial ribosomal protein L37)	DRSC16062	5.33
CG30466	DRSC05556	2.71
cocoon	DRSC10916	1.17
cocoon	DRSC28623	7.31

Copied from the listing, 4 entries:
Target gene	DRSC id	infection score, replicate 1
Decay (Death executioner caspase related to Apopain/Yama)	DRSC16930	3.37
CG12301	DRSC09875	11.1
h-cup (heineken-cup)	DRSC15973	16.1
h-cup (heineken-cup)	DRSC24713	10.3

Next entries:
Target gene	DRSC id	infection score, replicate 1
CheB42a (Chemosensory protein B 42a)	DRSC22881	3.97
Uro (Urate oxidase)	DRSC03469	12
CG5555	DRSC15834	5.12
Sec71 (Secretory 71)	DRSC01893	1.6
CG13218	DRSC06340	19.3
CG13218	DRSC26951	6.79
mEFTs (mitochondrial translation elongation factor Ts)	DRSC02953	11
mEFTs (mitochondrial translation elongation factor Ts)	DRSC30019	2.8
capt (capulet)	DRSC00676	5.01
capt (capulet)	DRSC00806	2.13
capt (capulet)	DRSC27343	34.7
capt (capulet)	DRSC28196	17.1
CG31626 + CG8677	DRSC21844	2.4
CG31626 + CG8677	DRSC25078	5.54
AP-1gamma (Adaptor Protein complex 1, gamma subunit)	DRSC18433	15
CAH16 (Carbonic anhydrase 16)	DRSC15371	6.03
CAH16 (Carbonic anhydrase 16)	DRSC27986	9.77
Trs31 (TRAPP subunit 31)	DRSC05975	35.1
tj (traffic jam)	DRSC02011	0.88
tj (traffic jam)	DRSC28417	4.39
